Values from PubChem BioAssay AID624099 (ICCB-Longwood, 2012)

- Aim: 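Host factors E2 relies on to silence an HPV18 LCR reporter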 (primary screen)
- Cells: human C33A cervical carcinoma cells (HPV-negative) stably expressing BPV1 E2 and an HPV18 LCR luciferase reporter
- Reagents: siRNA pool against human genes, 40 nM
- Timing: 72 h
- Measured: 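Per-well luciferase luminescence, z-scored on each plate against the plate mean and SD with control wells left out, then averaged across three replicate plates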
- Direction: mean z-score and z-score: higher = stronger reporter signal, weaker E2 silencing
- Rule for the call: 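Mean z ≥ 2 together with z ≥ 2 in two or more of the three replicates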
The whole screen tested about 21,000 reagents; this is an unselected part. In the full data, 497 (2.4%) were called active. 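Higher z means weaker E2 silencing; only reporter increases were scored, and knock-downs that hurt cell survival may mask genuine repressor factors.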

no.	gene knocked down	mean z-score	z-score, replicate A	z-score, replicate B	z-score, replicate C	outcome
1	GOLGA8CP	-0.31	-0.09	-0.3	-0.54	inactive
2	RHOQP3	0.15	0.2	0.17	0.09	inactive
3	RIMS4	1.15	1.59	0.95	0.9	inactive
4	VPS25	0.53	0.47	0.65	0.47	inactive
5	CDC14C	-0.02	0.14	-0.11	-0.1	inactive
6	BRWD1	0.07	0.16	-0.01	0.06	inactive
7	TMTC4	-0.63	-0.57	-0.56	-0.76	inactive
8	NHERF2	0.13	-0.03	0.15	0.27	inactive
9	KICS2	1.89	1.86	2.03	1.8	inactive
10	RPL10AP3	-0.15	-0.13	-0.33	0.02	inactive
11	COL18A1	-0.32	-0.41	-0.22	-0.31	inactive
12	IL1A	1.16	1.31	1.16	1.01	inactive
13	MAPK4	-0.47	-0.29	-0.71	-0.42	inactive
14	PKD1L1	-1.6	-1.83	-1.76	-1.19	inactive
15	SLC35A1	-0.66	-0.63	-0.76	-0.58	inactive
16	TANC1	-0.1	0.19	-0.15	-0.33	inactive
17	RPL15	-0.77	-0.66	-0.87	-0.77	inactive
18	SPTBN5	1.14	1.84	0.98	0.58	inactive
19	VNN1	-0.9	-0.73	-1.12	-0.84	inactive
20	EGLN3	0.27	0.02	0.3	0.51	inactive
21	BAG3	-0.83	-1.52	-0.29	-0.68	inactive
22	LOC392850 (retired record)	0.82	0.82	0.67	0.97	inactive
23	PDE1B	0.25	0.02	0.33	0.41	inactive
24	PSD3	-0.55	-0.53	-0.72	-0.41	inactive
25	DDX60	1.27	1.47	1.66	0.68	inactive
26	SLC23A2	0.84	0.97	0.75	0.8	inactive
27	PRSS16	0.28	0.62	0.22	0	inactive
28	POLQ	-0.19	-0.15	-0.17	-0.25	inactive
29	TOPBP1	0.8	0.66	0.77	0.96	inactive
30	TEF	-0.27	0.08	-0.25	-0.65	inactive
31	SPANXD	0.01	-0.33	0.35	-0.2	inactive
32	MFHAS1	0.08	0	0.2	0.04	inactive
33	ZCCHC8	1.38	1.6	1.28	1.26	inactive
34	TIMM10B	-0.19	-0.26	-0.29	-0.02	inactive

Limited to “z-score, replicate B” (5 entries from above):
PSD3 = -0.72
DDX60 = 1.66
SLC23A2 = 0.75
PRSS16 = 0.22
POLQ = -0.17

The list goes on:
no.	gene knocked down	mean z-score	z-score, replicate A	z-score, replicate B	z-score, replicate C	outcome
35	ANGPT2	0.78	0.88	0.65	0.8	inactive
36	TBL1Y	-0.2	-0.58	-0.22	0.2	inactive
37	ZNF180	0.72	0.5	0.77	0.9	inactive
38	ACER1	1.17	1.26	1.21	1.04	inactive
39	SLCO5A1	-0.04	-0.3	0.03	0.14	inactive
40	PDE8B	0.04	0.27	-0.12	-0.05	inactive
41	C2	1.33	1.62	0.84	1.52	inactive
42	BHLHE40	1.13	0.95	1.36	1.07	inactive
43	GTF2A2	-1.26	-1.06	-1.76	-0.97	inactive
44	TNFSF9	0.89	0.84	0.87	0.97	inactive
45	LOC139116 (retired record)	0.06	-0.14	0.15	0.17	inactive
46	WDR12	-0.17	-0.21	-0.08	-0.23	inactive
47	MYL12A	0.49	0.74	0.38	0.36	inactive
48	LINC00323	2.16	2.27	2.14	2.08	active
49	RTL4	-0.35	-0.4	-0.37	-0.27	inactive
50	MAGEA1	0	0.05	0.06	-0.11	inactive
51	TPM1	-0.25	-0.17	-0.18	-0.4	inactive
52	CAD	-0.06	0.02	-0.5	0.31	inactive
53	BPIFA3	-0.16	-0.05	-0.48	0.03	inactive
54	STEAP3	-1.38	-1.23	-1.28	-1.64	inactive
55	NT5C3A	-0.45	-0.43	-0.68	-0.23	inactive
56	LOC391347 (retired record)	0.59	0.49	0.5	0.78	inactive
57	LIPA	-0.3	-0.11	-0.85	0.07	inactive
